Measured values from PMC2913955, “Whole-cell fungal transformation of precursors into dyes” (Microbial Cell Factories, 2010).

Assays:
[1] = test system: Trametes versicolor (TV7); test: Whole-cell biotransformation in liquid culture, biomass immobilized on PMS; type: cell-based; conditions: strain TV7 on PMS, 1 mM precursor, 10 times diluted GPA, 48 hours, at product λmax (2,5DABS: sum of 460 and 544 nm)
Fomes fomentarius (FF25) = test: Consumption of AHBS by immobilized FF25 in different transformation media (MEKC); type: cell-based; conditions: FF25 on PMS

Compound | Absorbance of product (Abs) [1] | yield of AHBS transformation after 24 hours (Fomes fomentarius (FF25); 1 mM and 5 mM AHBS, systems A-D) | AHBS present in the reaction mixture after 24 hours of transformation (Fomes fomentarius (FF25); 5 mM AHBS incubated in Na-tartrate buffer (system A)) | AHBS concentration transformed during 24 hours (Fomes fomentarius (FF25); 10 mM AHBS, 100 and 10 times diluted GPA medium (system C and D))
Nc1cc(S(=O)(=O)O)ccc1O [AHBS, 3-amino-4-hydroxybenzenesulfonic acid] | 5.94 ± 0.11 Abs | transformed completely | 0.8 mM | More than 50%
Nc1ccc(N)c(S(=O)(=O)O)c1 [2,5DABS, 2,5-diaminobenzenesulfonic acid] | 5.40 ± 0.05 Abs | – | – | –
Nc1ncccc1O [Precursor 2A3HP, 2-amino-3-hydroxypyridine] | 4.79 ± 0.18 Abs | – | – | –
Nc1cccc2c(S(=O)(=O)O)cccc12 [ANS, 5-amino-1-naphthalenesulfonic acid] | 0.71 ± 0.02 Abs | – | – | –
